B1: FcLoop-G4-OSK-G2 (Fc fusion)
chain: MDKTHTCPPCPAPELLGGPSVFLFPPKPKDTLMISRTPEVTCVVVDVSHEDPEVKFNWYVDGVEVHNAKTKPREEQYNSTYRVVSVLTVLHQDWLNGKEYKCKVSNKALPAPIEKTISKAKGQPREPQVYTLPPSRDELGGGGGVIINVKCKISRQCLEPCKKAGMRFGKCMNGKCHCTPKGGTKNQVSLTCLVKGFYPSDIAVEWESNGQPENNYKTTPPVLDSDGSFFLYSKLTVDKSRWQQGNVFSCSVMHEALHNHYTQKSLSLSPGK
B2: 20k PEG-L2-6H-L3-CH2-L10-OsK1(1-38) (Fc fusion)
chain: MGGHHHHHHGGGPSVFLFPPKPKDTLMISRTPEVTCVVVDVSHEDPEVKFNWYVDGVEVHNAKTKPREEQYNSTYRVVSVLTVLHQDWLNGKEYKCKVSNKALPAPIEKTISGGGGSGGGGSGVIINVKCKISRQCLEPCKKAGMRFGKCMNGKCHCTPK
B3: L2-6H-L3-CH2-L10-OsK1(1-38) (Fc fusion)
chain: MGGHHHHHHGGGPSVFLFPPKPKDTLMISRTPEVTCVVVDVSHEDPEVKFNWYVDGVEVHNAKTKPREEQYNSTYRVVSVLTVLHQDWLNGKEYKCKVSNKALPAPIEKTISGGGGSGGGGSGVIINVKCKISRQCLEPCKKAGMRFGKCMNGKCHCTPK
B4: FcLoop-G2-OSK-G2 (Fc fusion)
chain: MDKTHTCPPCPAPELLGGPSVFLFPPKPKDTLMISRTPEVTCVVVDVSHEDPEVKFNWYVDGVEVHNAKTKPREEQYNSTYRVVSVLTVLHQDWLNGKEYKCKVSNKALPAPIEKTISKAKGQPREPQVYTLPPSRDELGGGVIINVKCKISRQCLEPCKKAGMRFGKCMNGKCHCTPKGGTKNQVSLTCLVKGFYPSDIAVEWESNGQPENNYKTTPPVLDSDGSFFLYSKLTVDKSRWQQGNVFSCSVMHEALHNHYTQKSLSLSPGK
B5: FcLoop-G2-ShK-G2 (Fc fusion)
chain: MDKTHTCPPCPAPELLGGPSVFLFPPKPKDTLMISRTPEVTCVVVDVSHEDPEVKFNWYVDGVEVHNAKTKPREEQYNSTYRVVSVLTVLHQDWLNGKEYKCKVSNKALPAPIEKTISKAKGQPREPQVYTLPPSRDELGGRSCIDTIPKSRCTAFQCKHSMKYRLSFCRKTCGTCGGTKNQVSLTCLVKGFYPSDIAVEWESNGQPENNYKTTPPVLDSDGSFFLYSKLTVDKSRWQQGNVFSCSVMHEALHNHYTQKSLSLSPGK

In the experiment the target is human Kv1.3 voltage-gated potassium channel (human, UniProt P22001 1-575). The experiment is described as follows: cell-based or functional assay.
As for B1, the “WB/IFNg (IC50, nM), human whole blood assay” value (“WB/IFNg (IC50, nM)” for short) was determined as 0.195 nM and the “WB/IL-2 (IC50, nM), human whole blood assay” value (“WB/IL-2 (IC50, nM)” for short) came to 0.15 nM.
In the case of B2, the “WB/IFNg (IC50, nM)” value stood at 50.1 nM.
Take B3: the “WB/IFNg (IC50, nM)” value amounted to 55.2 nM.
As to B4, the “WB/IFNg (IC50, nM)” value worked out at 0.056 nM and the “WB/IL-2 (IC50, nM)” value amounted to 0.028 nM.
In the case of B5, the “WB/IFNg (IC50, nM)” value was found to be 0.119 nM and the “WB/IL-2 (IC50, nM)” value is 0.109 nM.

Source of the values: patent publication US20090318341A1 (Amgen, published 2009).
